PubChem BioAssay AID1259414 – Drosophila RNAi Screening Center – 2018
Test: 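Host factors increasing or decreasing Wolbachia levels in cultured fly cells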 (primary screen). Cells: Drosophila JW18 cells infected with Wolbachia. Reagent: long dsRNA against Drosophila genes, 0.25 µg dsRNA per well of a 384-well plate. Time to read-out: 5 days. Challenge: cells persistently infected with Wolbachia before knock-down; no added drug. Measured: 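Automated imaging of bacterial rRNA staining divided by host cell count, reported as plate-normalised robust z-score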. Reading the numbers: Wolbachia per cell robust z: higher = more Wolbachia per host cell than the plate typical. Call rule: 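Active if absolute robust z reaches 1.5 in two or more of three replicates, leaving out multi- or no-target dsRNAs, genes unexpressed in JW18 and A1 wells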.
The screen tested about 24,000 reagents; this is a random part of those that have a named target and a result. Over the whole deposit, about 1,210 (5%) are marked active. 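Inactive calls also include excluded dsRNAs with several or no targets, genes unexpressed in JW18, and well A1, regardless of score.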

CG11409 [DRSC18579] gave Wolbachia per cell robust z, rep 1 = -0.878; Wolbachia per cell robust z, rep 2 = 1.57; Wolbachia per cell robust z, rep 3 = 0.268; inactive.
After knock-down of CG11409 [DRSC28360] the results were Wolbachia per cell robust z, rep 1 = -1.25; Wolbachia per cell robust z, rep 2 = -1.77; Wolbachia per cell robust z, rep 3 = -1.25; inactive.
Against G6P [DRSC27121] the deposit lists Wolbachia per cell robust z, rep 1 = -3.45; Wolbachia per cell robust z, rep 2 = -0.812; Wolbachia per cell robust z, rep 3 = 0.829; inactive.
With knock-down of CG13084 [DRSC02188], the screen gave Wolbachia per cell robust z, rep 1 = 0.373; Wolbachia per cell robust z, rep 2 = 0.0101; Wolbachia per cell robust z, rep 3 = 1.69; inactive.
With knock-down of Ir84a [DRSC12510], the screen gave Wolbachia per cell robust z, rep 1 = 0.246; Wolbachia per cell robust z, rep 2 = 0.0879; Wolbachia per cell robust z, rep 3 = 0.272; inactive.
After knock-down of Ir84a [DRSC27487] the results were Wolbachia per cell robust z, rep 1 = 0.266; Wolbachia per cell robust z, rep 2 = 0.361; Wolbachia per cell robust z, rep 3 = -0.296; inactive.
Alas [DRSC04044] scored Wolbachia per cell robust z, rep 1 = -0.0885; Wolbachia per cell robust z, rep 2 = 0.628; Wolbachia per cell robust z, rep 3 = 0.745; inactive.
After knock-down of amrt [DRSC19378], the screen gave Wolbachia per cell robust z, rep 1 = 0.495; Wolbachia per cell robust z, rep 2 = -0.00592; Wolbachia per cell robust z, rep 3 = 0.9; inactive.
For amrt [DRSC26943], the entry reads Wolbachia per cell robust z, rep 1 = 0.889; Wolbachia per cell robust z, rep 2 = 0.165; Wolbachia per cell robust z, rep 3 = 0.508; inactive.
After knock-down of rictor [DRSC20071] the results were Wolbachia per cell robust z, rep 1 = -1.39; Wolbachia per cell robust z, rep 2 = -0.96; Wolbachia per cell robust z, rep 3 = -0.194; inactive.
Depletion of EMC1 [DRSC15455] came out at: Wolbachia per cell robust z, rep 1 = 0.15; Wolbachia per cell robust z, rep 2 = -0.0864; Wolbachia per cell robust z, rep 3 = -1.24; inactive.
CG4704 [DRSC15628] scored Wolbachia per cell robust z, rep 1 = 0.568; Wolbachia per cell robust z, rep 2 = -0.739; Wolbachia per cell robust z, rep 3 = 0.855; inactive.
Sur [DRSC03447] gave Wolbachia per cell robust z, rep 1 = 0.0574; Wolbachia per cell robust z, rep 2 = -0.0491; Wolbachia per cell robust z, rep 3 = 0.521; inactive.
With knock-down of Sur [DRSC27276] the results were Wolbachia per cell robust z, rep 1 = -0.00305; Wolbachia per cell robust z, rep 2 = 0.492; Wolbachia per cell robust z, rep 3 = 0.803; inactive.
CR33283 [DRSC22918] showed Wolbachia per cell robust z, rep 1 = -2.85; Wolbachia per cell robust z, rep 2 = -0.108; Wolbachia per cell robust z, rep 3 = -1.04; inactive.

3 of these entries, reformatted.
| target gene | amplicon | Wolbachia per cell robust z, rep 1 | Wolbachia per cell robust z, rep 2 | Wolbachia per cell robust z, rep 3 | outcome |
| --- | --- | --- | --- | --- | --- |
| Sur | DRSC03447 | 0.0574 | -0.0491 | 0.521 | inactive |
| Sur | DRSC27276 | -0.00305 | 0.492 | 0.803 | inactive |
| CR33283 | DRSC22918 | -2.85 | -0.108 | -1.04 | inactive |

Next reagents:
ND-B14.5A [DRSC18500] scored Wolbachia per cell robust z, rep 1 = 1.06; Wolbachia per cell robust z, rep 2 = -0.0733; Wolbachia per cell robust z, rep 3 = 0.0719; inactive.
Against SelR [DRSC16071] the deposit lists Wolbachia per cell robust z, rep 1 = -0.634; Wolbachia per cell robust z, rep 2 = -0.493; Wolbachia per cell robust z, rep 3 = 0.214; inactive.
With knock-down of prc [DRSC11385], the screen gave Wolbachia per cell robust z, rep 1 = 0.561; Wolbachia per cell robust z, rep 2 = 0.115; Wolbachia per cell robust z, rep 3 = 0.373; inactive.
FBXO11 [DRSC16497] gave Wolbachia per cell robust z, rep 1 = 0.981; Wolbachia per cell robust z, rep 2 = 0.358; Wolbachia per cell robust z, rep 3 = 0.706; inactive.
Sfp24Ba [DRSC40530] scored Wolbachia per cell robust z, rep 1 = -1.89; Wolbachia per cell robust z, rep 2 = -0.497; Wolbachia per cell robust z, rep 3 = 0.279; inactive.
After knock-down of CG42700 [DRSC06293], the screen gave Wolbachia per cell robust z, rep 1 = -1.01; Wolbachia per cell robust z, rep 2 = -1.07; Wolbachia per cell robust z, rep 3 = -0.389; inactive.
CG42700 [DRSC23109] showed Wolbachia per cell robust z, rep 1 = 1.34; Wolbachia per cell robust z, rep 2 = 1.03; Wolbachia per cell robust z, rep 3 = 0.953; inactive.
CG42700 [DRSC27344] scored Wolbachia per cell robust z, rep 1 = 0.299; Wolbachia per cell robust z, rep 2 = 0.887; Wolbachia per cell robust z, rep 3 = 1.06; inactive.
After knock-down of Alp2 [DRSC04354] the results were Wolbachia per cell robust z, rep 1 = -0.49; Wolbachia per cell robust z, rep 2 = 0.0328; Wolbachia per cell robust z, rep 3 = 0.53; inactive.
After knock-down of Alp2 [DRSC26474] the results were Wolbachia per cell robust z, rep 1 = -1.26; Wolbachia per cell robust z, rep 2 = -0.0593; Wolbachia per cell robust z, rep 3 = -0.331; inactive.
Against Alp2 [DRSC41593], the entry reads Wolbachia per cell robust z, rep 1 = -3.06; Wolbachia per cell robust z, rep 2 = -2.62; Wolbachia per cell robust z, rep 3 = -3.03; inactive.
